From patent US8829030B2 (priority 2002, dated 2014)

Sequences of proteins named here, by UniProt entry; tags and fusion partners are left off. Residues count along the entry.
UniProt P26663, 2420-3010 limits assumed: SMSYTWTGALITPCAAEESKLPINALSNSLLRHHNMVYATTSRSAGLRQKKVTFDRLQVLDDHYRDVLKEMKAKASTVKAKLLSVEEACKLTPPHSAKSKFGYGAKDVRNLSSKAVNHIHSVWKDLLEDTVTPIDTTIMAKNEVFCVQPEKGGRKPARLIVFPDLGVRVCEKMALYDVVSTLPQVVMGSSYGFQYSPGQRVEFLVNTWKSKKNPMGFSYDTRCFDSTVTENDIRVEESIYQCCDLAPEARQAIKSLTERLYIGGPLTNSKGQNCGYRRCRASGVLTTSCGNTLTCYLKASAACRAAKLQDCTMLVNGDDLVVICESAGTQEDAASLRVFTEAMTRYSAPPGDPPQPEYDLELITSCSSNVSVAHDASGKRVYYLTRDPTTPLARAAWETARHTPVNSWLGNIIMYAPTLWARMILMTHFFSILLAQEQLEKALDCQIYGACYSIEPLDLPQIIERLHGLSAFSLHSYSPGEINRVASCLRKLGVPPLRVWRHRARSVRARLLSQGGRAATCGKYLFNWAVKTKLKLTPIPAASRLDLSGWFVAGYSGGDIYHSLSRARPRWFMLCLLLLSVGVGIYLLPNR

Molecular target: recombinant HCV RNA-dependent RNA polymerase (NS5B protein) (Hepatitis C virus genotype 1b, UniProt P26663)
Experiment: In vitro HCV RdRp Flashplate scintillation proximity assay (STREP-FLASH ASSAY)
Type: biochemical, HCV-Bk strain
Details: read-out: Activity (polymerase activity, IC50); 100 nM recombinant HCV NS5B, 25 μM UTP, polyrA/biotinylated-oligo dT, 2 hrs at room temperature

## CC1CCC(C(=O)N(c2cc(-c3ccccc3)sc2C(=O)O)C2CCNCC2)CC1 (stereo not shown)
  IC50: < 5 µM
